In paper PMC2565699:
The exact form of at least one protein or probe is not confirmed. At least one result comes from cells or an extract, where the contact may be indirect. For part of these data: Tags and fusion partners may be left off the protein sequences shown.

Columns and labels:
[1] = biological target: EF(2)mutURE3-BP (myc-tagged, calcium-insensitive dominant positive) (Entamoeba histolytica) (UniProt Q9GSV7); assay: EMSA; conditions: 10 mM Tris-HCl pH 7.9, 50 mM NaCl, 1 mM EDTA, 0.05% nonfat milk powder, 3% glycerol, 0.2 ug poly(dIdC), 10 fmol probe, 2 ug nuclear extract, 20 C, 1 h, protein in an extract, protein details: N-terminal myc, label: 32P (Klenow) as probe, unlabeled as competitor
[2] = biological target: T1, URE3-BP (Entamoeba histolytica) (UniProt Q9GSV7); assay: EMSA; conditions: low calcium, STOP-EF(2)mutURE3-BP extract, equivalent to EF(2)mut; 10 mM Tris-HCl pH 7.9, 50 mM NaCl, 1 mM EDTA, 0.05% nonfat milk powder, 3% glycerol, 0.2 ug poly(dIdC), 10 fmol probe, 2 ug nuclear extract, 20 C, 1 h; protein in an extract; label: 32P (Klenow) as probe, unlabeled as competitor
T1 sequence (looked up, limits assumed): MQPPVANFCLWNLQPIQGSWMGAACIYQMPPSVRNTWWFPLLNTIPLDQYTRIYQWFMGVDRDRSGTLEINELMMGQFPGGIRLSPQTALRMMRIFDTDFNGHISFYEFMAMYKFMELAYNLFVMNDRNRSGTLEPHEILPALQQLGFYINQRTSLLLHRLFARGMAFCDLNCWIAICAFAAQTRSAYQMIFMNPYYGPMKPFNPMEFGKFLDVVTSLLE

Measured: binding result

TGTTCCAAAAAGATATATTCTATTGAAAATAAAAGAAG (double strand) [hgl5-URE3 (wt)]
binds: [1]; added calcium | [1]; low calcium, equivalent to STOP control | [2]
